PubChem BioAssay AID1224833 | University of Georgia, 2016
The deposit covers about 12,000 reagents; this is a part drawn at random. About 5,600 of them (46%) were called active. 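Active calls cover z-scores past 1 in both directions, so they include lowered as well as raised rotavirus replication.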 Reagents against one gene are numbered here.

Purpose: 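Human genes whose knock-down alters rotavirus replication in monkey cells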 (primary screen)
System: monkey MA104 kidney cells
Reagent: siRNA pool against human genes, 50 nM
Time to read-out: 48 h knock-down before infection; read 24 h after infection
Challenge: infection with rotavirus strain RV3 two days after transfection; infectious dose for this stage not given
Detection: 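z-score of rotavirus antigen signal per well, from a fluorescent immunoassay, relative to non-targeting control wells on the same plate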
Reading the numbers: z-score vs non-targeting control: higher = more rotavirus replication than with non-targeting control
Rule for the call: In these data the active calls have z-score vs non-targeting control at about -1 or lower, or at about 1 or higher
Meaning of the calls: active = z-score beyond 1 either way; inactive = z-score within 1 of zero

gene,reagent,z-score vs non-targeting control,call
OR2L2,1,2.43,active
FKBP10,1,-0.704,inactive
HINFP,1,-0.362,inactive
RD3,1,-0.471,inactive
CBX8,1,-1.9,active
TRAPPC3,1,0.471,inactive
DRC1,1,-1.65,active
MREG,1,-1.43,active
DDX49,1,-2.04,active
UBE3D,1,1.38,active
EMC1,1,2.14,active
MCMBP,1,-0.42,inactive
CD300LG,1,0.831,inactive
OR1Q1,1,0.316,inactive
SND1,1,-1.01,active
RPL36AL,1,0.0583,inactive
TLNRD1,1,2.42,active
SRSF5,1,1.73,active
GATAD1,1,-0.265,inactive
LTA,1,0.693,inactive
CLDN9,1,-1.16,active
BSG,1,-2.72,active
BSN,1,1.35,active
ILRUN,1,-2.2,active
RAB39B,1,-2.06,active
PRL,1,-1.7,active
STOM,1,-0.473,inactive
CCNDBP1,1,-1.65,active
NHERF4,1,-0.674,inactive
RFX3,1,-0.847,inactive
KATNAL2,1,-1.46,active
MAGEE1,1,0.437,inactive
SPACA9,1,0.415,inactive
ZNF614,1,0.928,inactive
CLLU1-AS1,1,-0.163,inactive
ZBTB4,1,0.533,inactive
ARPC1B,1,-2.18,active
CYP11A1,1,-1.87,active
TNFRSF19,1,-1.23,active
CFHR2,1,1.44,active
TCF21,1,-2.27,active
RRP12,1,1.61,active
NUDT13,1,-0.544,inactive
MAPRE1,1,-0.519,inactive
HOXD13,1,0.582,inactive
SUMO4,1,-0.52,inactive
LACTB,1,-0.295,inactive
KLHL40,1,-1.54,active
ZBED8L,1,1.07,active
NLGN4Y,1,-0.53,inactive
LRRN2,1,2.44,active
MYOM3,1,-0.772,inactive
CRYGS,1,-1.72,active
MIER3,1,-0.722,inactive
ARHGEF11,1,0.038,inactive
SLF1,1,-0.606,inactive
OR10K2,1,-1.1,active
TOM1,1,0.594,inactive
OR6C65,1,-0.234,inactive
SLC39A2,1,1.08,active
MAP1B,1,-0.491,inactive
SLC24A3,1,0.417,inactive
CEP89,1,-0.803,inactive
FHOD1,1,0.268,inactive
ADNP,1,0.0162,inactive
ARHGEF37,1,-0.636,inactive
CTDSPL,1,0.0652,inactive
CCZ1B,1,-0.97,inactive
S1PR3,1,1.35,active
S1PR3,2,1.55,active
NXPH1,1,0.131,inactive
ANKLE1,1,0.819,inactive
HYAL2,1,-1.71,active
LPAR1,1,-0.671,inactive
BLID,1,1.21,active
POMGNT2,1,-0.464,inactive
QPRT,1,-1.44,active
MUCL1,1,-1.99,active
ACAP3,1,1.17,active
SDC3,1,-0.262,inactive

15 of these entries, reformatted.
{"gene": "ILRUN", "reagent": 1, "z-score vs non-targeting control": -2.2, "call": "active"}
{"gene": "RAB39B", "reagent": 1, "z-score vs non-targeting control": -2.06, "call": "active"}
{"gene": "PRL", "reagent": 1, "z-score vs non-targeting control": -1.7, "call": "active"}
{"gene": "STOM", "reagent": 1, "z-score vs non-targeting control": -0.473, "call": "inactive"}
{"gene": "CCNDBP1", "reagent": 1, "z-score vs non-targeting control": -1.65, "call": "active"}
{"gene": "NHERF4", "reagent": 1, "z-score vs non-targeting control": -0.674, "call": "inactive"}
{"gene": "RFX3", "reagent": 1, "z-score vs non-targeting control": -0.847, "call": "inactive"}
{"gene": "KATNAL2", "reagent": 1, "z-score vs non-targeting control": -1.46, "call": "active"}
{"gene": "MAGEE1", "reagent": 1, "z-score vs non-targeting control": 0.437, "call": "inactive"}
{"gene": "SPACA9", "reagent": 1, "z-score vs non-targeting control": 0.415, "call": "inactive"}
{"gene": "ZNF614", "reagent": 1, "z-score vs non-targeting control": 0.928, "call": "inactive"}
{"gene": "CLLU1-AS1", "reagent": 1, "z-score vs non-targeting control": -0.163, "call": "inactive"}
{"gene": "ZBTB4", "reagent": 1, "z-score vs non-targeting control": 0.533, "call": "inactive"}
{"gene": "ARPC1B", "reagent": 1, "z-score vs non-targeting control": -2.18, "call": "active"}
{"gene": "CYP11A1", "reagent": 1, "z-score vs non-targeting control": -1.87, "call": "active"}

Further entries follow:
gene,reagent,z-score vs non-targeting control,call
METTL25B,1,2.21,active
MOB1B,1,-0.823,inactive
UTP23,1,-1.82,active
ZNF606,1,-0.705,inactive
AMPD3,1,0.581,inactive
HSF5,1,-1.67,active
GET4,1,-1.21,active
DKK1,1,1.4,active
TSPEAR,1,0.326,inactive
C1orf52,1,0.845,inactive
ARHGEF10L,1,2.33,active
FRZB,1,2.83,active
IDO1,1,-2.23,active
OR4F15,1,0.959,inactive
LCMT2,1,0.503,inactive
ZNF239,1,1.6,active
SEC13,1,1.32,active
NXF5,1,-2.35,active
TERB2,1,-1.11,active
CCR3,1,1.64,active
FKBP14,1,-0.793,inactive
DAPL1,1,-0.808,inactive
LPIN3,1,0.642,inactive
GPD1,1,-2.81,active
SLC25A41,1,-1.11,active
PLAC9,1,1.9,active
OMA1,1,0.68,inactive
CYP2A13,1,1.16,active
ZNF79,1,-2.23,active
CFAP74,1,0.474,inactive
SP3,1,-1,active
UBQLN2,1,-0.782,inactive
FADS2,1,-0.72,inactive
AKR1C2,1,1.4,active
MTERF2,1,1.49,active
IER2,1,-3.59,active
DLGAP4,1,-0.239,inactive
APLP2,1,-1.66,active
FHIP1B,1,0.812,inactive
SMOC1,1,-0.669,inactive
RPP25L,1,1.43,active
IFT88,1,0.817,inactive
MYPN,1,-0.236,inactive
OR52H1,1,-0.123,inactive
MDH2,1,-2.1,active
PRIM2,1,-0.553,inactive
PAGE4,1,-0.436,inactive
HMGA1,1,-2.39,active
ZNF148,1,1.34,active
UFC1,1,1.8,active
OR5H2,1,-0.29,inactive
DIP2B,1,-2.52,active
PNLIPRP1,1,-1.13,active
DNAAF4,1,-1.1,active
TDG,1,-1.24,active
PDHB,1,1.4,active
OR10Z1,1,0.599,inactive
UMPS,1,-1.65,active
DQX1,1,-0.263,inactive
RREB1,1,-0.739,inactive
